Pooled drug test results. Numbers come from NIAID ChemDB, via PubChem.

All rows: tests in culture; agent: Haemophilus influenzae; read-out: MIC

Conditions beyond the fields shown may differ between rows.

SMILES | strain | value
CC(=O)NC[C@H]1CN(c2cc(F)c(N3C[C@@H]4C(C(=O)O)[C@@H]4C3)c(F)c2)C(=O)O1 | ATCC31517 | 4 µg/mL
CC(=O)NC[C@H]1CN(c2ccc(-c3cnn(C(C)=O)c3)c(F)c2)C(=O)O1 | UC 30063 | 16 µg/mL
CC[C@H]1OC(=O)[C@H](C)C(=O)[C@H](C)[C@@H](O[C@@H]2O[C@H](C)C[C@H](N(C)C)[C@H]2O)[C@@]2(C)C[C@@H](C)C(=NC(C)=O)[C@H](C)[C@@H](OC/C(=N\Oc3ccc(-n4cccn4)nc3)CO2)[C@]1(C)O | 33929 (ampicillin-resistant) | 4 µg/mL
CC[C@H]1OC(=O)[C@@](C)(F)C(=O)[C@H](C)[C@@H](O[C@@H]2O[C@H](C)C[C@H](N(C)C)[C@H]2O)[C@@]2(C)C[C@@H](C)C(=NC(C)=O)[C@H](C)[C@@H](OC/C(=N\OCc3ccc(-c4ncccn4)s3)CO2)[C@]1(C)O | 33929 (ampicillin-resistant) | 8 µg/mL
C=C1COC2[C@@H](C)/C(=N/OCOC)[C@H](C)C[C@@](C)(OC1)[C@H](O[C@@H]1O[C@H](C)C[C@H](N(C)C)[C@H]1O)[C@@H](C)C(=O)[C@@H](C)C(=O)O[C@H](CC)[C@@]2(C)O | 33929 (ampicillin-resistant) | >64 µg/mL
CC[C@H]1OC(=O)[C@H](C)C(=O)[C@H](C)[C@@H](O[C@@H]2O[C@H](C)C[C@H](N(C)C)[C@H]2O)[C@@]2(C)C[C@@H](C)C(=NC(C)=O)[C@H](C)[C@@H](OC/C(=N\Oc3ccccc3)CO2)[C@]1(C)O | 33929 (ampicillin-resistant) | 32 µg/mL
CC(=O)NC[C@H]1CN(c2ccc(-c3cncs3)c(F)c2)C(=O)O1 | UC 30063 | 4 µg/mL
CC(C)(C)[C@H](NC(=O)C(CC1CCCC1)CN(O)C=O)C(=O)N1CCN(Cc2nccs2)CC1 | Isolate 107022 | 2 µg/mL
CC[C@H]1OC(=O)[C@H](C)C(=O)[C@H](C)[C@@H](O[C@@H]2O[C@H](C)C[C@H](N(C)C)[C@H]2O)[C@@]2(C)C[C@@H](C)C(=NC(C)=O)[C@H](C)[C@@H](OC/C(=N\OCCc3ccccc3)CO2)[C@]1(C)O | 33929 (ampicillin-resistant) | 32 µg/mL
CC[C@H]1OC(=O)[C@@](C)(F)C(=O)[C@H](C)[C@@H](O[C@@H]2O[C@H](C)C[C@H](N(C)C)[C@H]2O)[C@@]2(C)C[C@@H](C)C(=NC(C)=O)[C@H](C)[C@@H](OC/C(=N\OCc3ccc(C(N)=O)cc3)CO2)[C@]1(C)O | 33929 (ampicillin-resistant) | 2 µg/mL
CC[C@H]1OC(=O)[C@H](C)C(=O)[C@H](C)[C@@H](O[C@@H]2O[C@H](C)C[C@H](N(C)C)[C@H]2O)[C@@]2(C)C[C@@H](C)C(=NC(C)=O)[C@H](C)[C@@H](OC/C(=N\Oc3ccc(-c4nnc(N)s4)cc3)CO2)[C@]1(C)O | 33929 (ampicillin-resistant) | 4 µg/mL
CC[C@H]1OC(=O)[C@@](C)(F)C(=O)[C@H](C)[C@@H](O[C@@H]2O[C@H](C)C[C@H](N(C)C)[C@H]2O)[C@@]2(C)C[C@@H](C)C(=NC(C)=O)[C@H](C)[C@@H](OC/C(=N\OCc3ccc4cnn(C(N)=O)c4c3)CO2)[C@]1(C)O | 33929 (ampicillin-resistant) | 4 µg/mL
CC[C@H]1OC(=O)[C@H](C)C(=O)[C@H](C)[C@@H](O[C@@H]2O[C@H](C)C[C@H](N(C)C)[C@H]2O)[C@@]2(C)C[C@@H](C)C(=NC(C)=O)[C@H](C)C(OC/C(=N/OCc3ccccc3)CO2)[C@]1(C)O | 33929 (ampicillin-resistant) | >64 µg/mL
CC[C@H]1OC(=O)[C@@](C)(F)C(=O)[C@H](C)[C@@H](O[C@@H]2O[C@H](C)C[C@H](N(C)C)[C@H]2O)[C@@]2(C)C[C@@H](C)C(=NC(C)=O)[C@H](C)[C@@H](OC/C(=N\OCc3ccc(-c4cccc(N)n4)s3)CO2)[C@]1(C)O | 33929 (ampicillin-resistant) | 4 µg/mL
CC[C@H]1OC(=O)[C@H](C)C(=O)[C@H](C)[C@@H](O[C@@H]2O[C@H](C)C[C@H](N(C)C)[C@H]2O)[C@@]2(C)C[C@@H](C)C(=NC(C)=O)[C@H](C)[C@@H](OC/C(=N\OCC#Cc3cncnc3)CO2)[C@]1(C)O | 33929 (ampicillin-resistant) | 16 µg/mL
CC(=O)NC[C@H]1CN(c2ccc(N3C[C@@H]4C(N)[C@@H]4C3)c(F)c2)C(=O)O1 | ATCC31517 | 4 µg/mL
CC(=O)NC[C@H]1CN(c2ccc(-c3ccn(C(C)=O)n3)c(F)c2)C(=O)O1 | UC 30063 | 64 µg/mL
CC[C@H]1OC(=O)[C@@](C)(F)C(=O)[C@H](C)[C@@H](O[C@@H]2O[C@H](C)C[C@H](N(C)C)[C@H]2O)[C@@]2(C)C[C@@H](C)C(=NC(C)=O)[C@H](C)[C@@H](OC/C(=N\OCc3ccc4nc(N)sc4c3)CO2)[C@]1(C)O | 33929 (ampicillin-resistant) | 4 µg/mL
CC[C@H]1OC(=O)[C@H](C)C(=O)[C@H](C)[C@@H](O[C@@H]2O[C@H](C)C[C@H](N(C)C)[C@H]2O)[C@](C)(OC)C[C@@H](C)C2=NCCN3C(=O)O[C@@]1(C)[C@H]3[C@H]2C | DILL | 4 µg/mL
CC[C@H]1OC(=O)[C@H](C)C(=O)[C@H](C)[C@@H](O[C@@H]2O[C@H](C)C[C@H](N(C)C)[C@H]2O)[C@@]2(C)C[C@@H](C)C(=NC(C)=O)[C@H](C)[C@@H](OC/C(=N\OCc3ccc(C(N)=O)s3)CO2)[C@]1(C)O | 33929 (ampicillin-resistant) | 4 µg/mL
CC[C@H]1OC(=O)[C@H](C)C(=O)[C@H](C)[C@@H](O[C@@H]2O[C@H](C)C[C@H](N(C)C)[C@H]2O)[C@](C)(OC)C[C@@H](C)C(=O)[C@H](C)[C@H]2N(CCCCn3cnc(-c4cccnc4)c3)C(=O)O[C@]12C | DILL | 2 µg/mL
CC[C@H]1OC(=O)[C@@](C)(F)C(=O)[C@H](C)[C@@H](O[C@@H]2O[C@H](C)C[C@H](N(C)C)[C@H]2O)[C@@]2(C)C[C@@H](C)C(=NC(C)=O)[C@H](C)[C@@H](OC/C(=N\OCc3ccc(-c4cccc(N)n4)s3)CO2)[C@]1(C)O | 33929 (ampicillin-resistant) | 4 µg/mL
CC[C@H]1OC(=O)[C@H](C)C(=O)[C@H](C)[C@@H](O[C@@H]2O[C@H](C)C[C@H](N(C)C)[C@H]2O)[C@@]2(C)C[C@@H](C)C(=O)[C@H](C)C(OC/C=C/CO2)[C@]1(C)O | 33929 (ampicillin-resistant) | >64 µg/mL
CC[C@H]1OC(=O)[C@@](C)(F)C(=O)[C@H](C)[C@@H](O[C@@H]2O[C@H](C)C[C@H](N(C)C)[C@H]2O)[C@@]2(C)C[C@@H](C)C(=N)[C@H](C)[C@@H](OC/C(=N\OCc3ccc(-c4nccs4)nc3)CO2)[C@]1(C)O | 33929 (ampicillin-resistant) | 4 µg/mL

Repeating the final 2 entries:

SMILES,strain,value
CC[C@H]1OC(=O)[C@H](C)C(=O)[C@H](C)[C@@H](O[C@@H]2O[C@H](C)C[C@H](N(C)C)[C@H]2O)[C@@]2(C)C[C@@H](C)C(=O)[C@H](C)C(OC/C=C/CO2)[C@]1(C)O,33929 (ampicillin-resistant),>64 µg/mL
CC[C@H]1OC(=O)[C@@](C)(F)C(=O)[C@H](C)[C@@H](O[C@@H]2O[C@H](C)C[C@H](N(C)C)[C@H]2O)[C@@]2(C)C[C@@H](C)C(=N)[C@H](C)[C@@H](OC/C(=N\OCc3ccc(-c4nccs4)nc3)CO2)[C@]1(C)O,33929 (ampicillin-resistant),4 µg/mL